Reference: PubChem BioAssay AID624099 (ICCB-Longwood, 2012)
In all, the deposit lists about 21,000 reagents; this is a random part of them. 497 of all reagents (2.4%) count as active. 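Higher z means weaker E2 silencing; only reporter increases were scored, and knock-downs that hurt cell survival may mask genuine repressor factors.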 Reagents against one gene are numbered here.

- Purpose: 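Human genes that papillomavirus E2 requires to repress the HPV18 LCR promoter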 (primary screen)
- System: human C33A cervical carcinoma cells (HPV-negative) stably expressing BPV1 E2 and an HPV18 LCR luciferase reporter
- Reagents: siRNA pool against human genes, 40 nM
- Timing: 72 h
- Measured: 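Per-well luciferase luminescence, z-scored on each plate against the plate mean and SD with control wells left out, then averaged across three replicate plates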
- Direction: mean z-score and z-score: higher = stronger reporter signal, weaker E2 silencing
- Active means: 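Mean z ≥ 2 together with z ≥ 2 in two or more of the three replicates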

no.	gene	reagent no.	mean z-score	z-score, replicate A	z-score, replicate B	z-score, replicate C	outcome
1	BRIX1	1	-1.14	-0.29	-1.02	-2.1	inactive
2	C1orf21	1	-0.07	0.19	0.23	-0.63	inactive
3	SIRPG	1	-0.58	-0.94	-0.45	-0.35	inactive
4	LOC440750 (retired record)	1	-0.56	-0.5	-0.38	-0.8	inactive
5	CDC42EP1	1	-0.45	-0.43	-0.63	-0.28	inactive
6	NME9	1	0.43	0.45	0.54	0.31	inactive
7	ZSCAN21	1	1.28	1.17	1.51	1.16	inactive
8	RUNX3	1	0.9	0.57	0.74	1.38	inactive
9	MRPS5	1	-1	-0.67	-1.11	-1.21	inactive
10	MAF	1	0.04	0.09	-0.14	0.18	inactive
11	PRB4	1	4.39	4.01	4.64	4.51	active
12	DOK6	1	1.09	1.17	1.22	0.89	inactive
13	SLC5A12	1	1	0.7	0.79	1.52	inactive
14	PARG	1	1	1.24	1.1	0.67	inactive
15	VSTM4	1	1.13	1.22	1.26	0.92	inactive
16	KCTD13	1	-0.31	-0.24	-0.37		inactive
17	RPL37	1	-3.13	-3.2	-3.11	-3.1	inactive
18	MTFR1L	1	-0.04	-0.05	-0.03	-0.04	inactive
19	WWOX	1	-0.91	-1.07	-0.91	-0.76	inactive
20	ARMC5	1	0.6	0.33	0.82	0.66	inactive
21	ARPC1A	1	-1.32	-1.41	-1.27	-1.28	inactive
22	SERPINB10	1	0.64	0.5	0.7	0.71	inactive
23	PPP1R3C	1	-0.74	-0.66	-0.93	-0.62	inactive
24	CHCHD7	1	0.46	0.92	0.19	0.28	inactive
25	C3orf38	1	1.14	0.88	1.54	1	inactive
26	ADCY1	1	0.01	0.11	-0.08	0.01	inactive
27	EXOC1	1	-0.63	-0.5	-0.52	-0.88	inactive
28	LOC151451 (retired record)	1	0.47	0.67	0.36	0.39	inactive
29	PPIAP87	1	-0.74	-0.17	-1.03	-1.01	inactive
30	GATA3-AS1	1	-0.23	-0.18	-0.33	-0.18	inactive
31	MBL2	1	0.3	0.41	0.59	-0.09	inactive
32	RIN1	1	-0.74	-0.51	-0.92	-0.79	inactive
33	ATP5PB	1	-0.07	0.04	-0.04	-0.2	inactive
34	FCHO1	1	-0.62	-0.78	-0.62	-0.45	inactive

Next part (8 carried over from the part before).
no.	gene	reagent no.	mean z-score	z-score, replicate A	z-score, replicate B	z-score, replicate C	outcome
27	EXOC1	1	-0.63	-0.5	-0.52	-0.88	inactive
28	LOC151451 (retired record)	1	0.47	0.67	0.36	0.39	inactive
29	PPIAP87	1	-0.74	-0.17	-1.03	-1.01	inactive
30	GATA3-AS1	1	-0.23	-0.18	-0.33	-0.18	inactive
31	MBL2	1	0.3	0.41	0.59	-0.09	inactive
32	RIN1	1	-0.74	-0.51	-0.92	-0.79	inactive
33	ATP5PB	1	-0.07	0.04	-0.04	-0.2	inactive
34	FCHO1	1	-0.62	-0.78	-0.62	-0.45	inactive
35	CPLX2	1	0.08	0.38	-0.01	-0.12	inactive
36	CPLX2	2	1.63	1.56	1.78	1.56	inactive
37	SPIB	1	1.41	1.41	1.31	1.53	inactive
38	ITPR1	1	0	0.22	-0.09	-0.13	inactive
39	DUS2	1	-0.33	-0.37	-0.46	-0.18	inactive
40	MSMO1	1	-0.01	0.45	-0.11	-0.37	inactive
41	SPRING1	1	0.84	0.31	1.05	1.16	inactive
42	ALLC	1	-0.36	-0.36	-0.56	-0.15	inactive
43	PPP3R1	1	-0.53	-0.22	-0.82	-0.55	inactive
44	LOC400948 (retired record)	1	0.87	1.08	0.7	0.84	inactive
45	CTSK	1	-0.48	-0.49	-0.62	-0.32	inactive
46	ZNF90	1	1.41	1.35	1.35	1.53	inactive
47	SNED1	1	-0.27	-0.34	-0.08	-0.39	inactive
48	PTF1A	1	1.59	1.37	1.64	1.75	inactive
49	RASGRF1	1	-0.92	-1	-0.73	-1.02	inactive
50	DNAH5	1	0.78	1.16	0.4	0.78	inactive
51	DNAH5	2	0.65	1.12	0.61	0.23	inactive
52	BICD2	1	0.76	0.56	0.67	1.07	inactive
53	OPALIN	1	-1.02	-1.07	-1.03	-0.97	inactive
54	ARL8B	1	1.9	2.2	2.21	1.31	inactive
55	RP2	1	0.92	1.17	0.57	1.03	inactive
56	TEK	1	-1.06	-1.02	-1.04	-1.12	inactive
57	LINC00485	1	0.28	0.81	0	0.04	inactive
58	KRT16	1	0.72	0.69	0.63	0.82	inactive
59	FLJ42393	1	0.01	-0.08	0.23	-0.11	inactive
60	C2CD3	1	-0.54	-1.01	-0.25	-0.36	inactive
61	VRTN	1	-0.67	-0.72	-1.08	-0.21	inactive
62	JMJD1C	1	-0.3	-0.53	-0.32	-0.06	inactive
63	LOC390547 (retired record)	1	1.29	1.62	1.16	1.1	inactive
64	CAPZB	1	-1.46	-1.6	-1.43	-1.36	inactive
65	RPL10AP9	1	-1.62	-1.27	-1.72	-1.88	inactive
66	FBXO41	1	-0.88	-0.92	-0.91	-0.8	inactive
67	CCR4	1	-1.21	-1.29	-1.06	-1.28	inactive
68	SCUBE3	1	-2.05	-1.87	-2.24	-2.13	inactive
69	YTHDC2	1	-0.12	-0.38	-0.08	0.09	inactive
70	DDX43	1	-0.31	-0.1	-0.46	-0.37	inactive
71	SMC3	1	-0.29	-0.26	-0.23	-0.39	inactive
72	SUPT20H	1	0.24	0.02	0.53	0.18	inactive
73	LOC339025 (retired record)	1	-0.23	-0.39	-0.21	-0.1	inactive
